One series deals with SARS-Cov-2 3CLpro (Severe acute respiratory syndrome coronavirus 2, UniProt P0DTD1). The following applies: read-out: SARS-Cov-2 (IC50), Table A, class symbols.
Series [1] concerns human beta-coronavirus OC43. Nature of the series: OC43 Coronavirus Assay in HeLa cells (antiviral, cytopathic effect, cell-titer-glo). To be noted: Table B, class symbols. Here is the method: OC43 Coronavirus Assay in HeLa cells […] HeLa human cervical epithelial cells (ATCC) were used as susceptible host cell lines and were cultured using EMEM media, supplemented with 10% fetal bovine serum (FBS), 1% (v/v) penicillin/streptomycin (P/S), 1% (v/v) HEPES and 1% (v/v) Cellgro Glutagro™ supplement (all Corning, Manassas, VA) at 37° C. For the OC43 antiviral assay, 1.5×10^4 HeLa cells per well were plated in 100 μL complete media in white 96-well plates with clear bottoms at 37° C. for up to 24 h to facilitate attachment and allow cells to recover from seeding stresses. Next day, the cell culture medium was removed. Serially diluted compounds in 100 μL assay media (EMEM, 2% FBS, 1% P/S, 1% Cellgro Glutagro™ supplement, 1% HEPES) were added to the cells and incubated for 4 h at 37° C. in a humidified 5% CO2 incubator. […] 96-well plates were incubated for 6 days at 33° C.; each plate contains uninfected control wells as well as virus-infected wells that were not treated with compound. Cytotoxicity plates without the addition of OC43 virus were carried out in parallel. At the end of the incubation period, 100 μL cell culture supernatant was replaced with 100 μL cell-titer-glo reagent (Promega, Madison, WI) and incubated for at least 10 min at rt prior to measuring luminescence. Luminescence was measured on a Perkin Elmer (Waltham, MA) Envision plate reader. […]
(Damage to the host cells serves as the signal in cytopathic effect assays.)

The test system of series [2] is HeLa human cervical epithelial cells. Nature of the series: Cytotoxicity in HeLa cells without addition of OC43 virus (in parallel). To be noted: Table B, class symbols. As for the experimental part:
HeLa human cervical epithelial cells (ATCC) were used as susceptible host cell lines and were cultured using EMEM media, supplemented with 10% fetal bovine serum (FBS), 1% (v/v) penicillin/streptomycin (P/S), 1% (v/v) HEPES and 1% (v/v) Cellgro Glutagro™ supplement (all Corning, Manassas, VA) at 37° C. For the OC43 antiviral assay, 1.5×10^4 HeLa cells per well were plated in 100 μL complete media in white 96-well plates with clear bottoms at 37° C. for up to 24 h to facilitate attachment and allow cells to recover from seeding stresses. Next day, the cell culture medium was removed. Serially diluted compounds in 100 μL assay media (EMEM, 2% FBS, 1% P/S, 1% Cellgro Glutagro™ supplement, 1% HEPES) were added to the cells and incubated for 4 h at 37° C. in a humidified 5% CO2 incubator. […] 96-well plates were incubated for 6 days at 33° C.; each plate contains uninfected control wells as well as virus-infected wells that were not treated with compound. Cytotoxicity plates without the addition of OC43 virus were carried out in parallel. At the end of the incubation period, 100 μL cell culture supernatant was replaced with 100 μL cell-titer-glo reagent (Promega, Madison, WI) and incubated for at least 10 min at rt prior to measuring luminescence. Luminescence was measured on a Perkin Elmer (Waltham, MA) Envision plate reader. […]

For series [3], the system named is SARS-CoV-2 B.1.1.7 lineage. Briefly: B.1.1.7 Infection Model in A549-Dual ACE2 TMPRSS2 Cells (antiviral, CPE, MTS). To be noted: read-out: A549-dual_ACE2_TMPRSS2 (EC50); Table C; SARS-CoV-2 B.1.1.7 in A549-dual_ACE2_TMPRSS2 cells, class symbols. As for the experimental part:
B.1.1.7 Infection Model in A549-Dual ACE2 TMPRSS2 Cells
The A549-dual_ACE2_TMPRSS2 cells (InvivoGen Cat #a-49-cov2r) were propagated in the growth medium which was prepared by supplementing DMEM (gibco cat no 41965-039) with 10% v/v heat-inactivated FCS and 10 μg/mL blasticidin (InvivoGen ant-b1-05), 100 μg/mL hygromycin (InvivoGen ant-hg-1), 0.5 μg/mL puromycin (InvivoGen ant-pr-1) and 100 μg/mL zeocin (InvivoGen ant-zn-05) in a humidified 5% CO2 incubator at 37° C. The assay medium was prepared by supplementing DMEM (gibco cat no 41965-039) with 2% v/v heat-inactivated FCS.
The virus isolate used is from the B.1.1.7 lineage (derived from hCoV-19/Belgium/rega-12211513/2020; EPI_ISL_791333,2020-12-21; see Abdelnabi et al., “Comparing infectivity and virulence of emerging SARS-CoV-2 variants in Syrian hamsters” EBioMedicine (2021) June; 68:103403. doi: 10.1016/j.ebiom.2021.103403).
For antiviral testing, cells were seeded in 96-well plates (Falcon) at a density of 15,000 cells per well in assay medium. After overnight growth, cells were treated with the indicated compound concentrations and infected with a MOI of 0.001 TCID50/cell (final volume 200 μL/well in assay medium). On day 4p.i. differences in cell viability caused by virus-induced CPE or by compound-specific side effects are analyzed using MTS as described previously (PMID: 22575574). […]

A value given as a limit tells only on which side of the number the result lay.

What is called IC50 is the concentration at which inhibition is half-maximal. Broadly, the EC50 is the concentration giving half of the maximal effect. As a reminder, the CC50 is the concentration at which the toxic effect on the cells reaches its halfway point. A high value points to better tolerance by the cells. As to `CN(C(=O)[C@H](CC1CC1)NS(=O)(=O)C1CC1)[C@@H](CC1CC1)C(=O)N1C[C@@]2(C[C@H]1C#N)Oc1cc(F)cc(F)c1NC2=O`, the IC50 on SARS-Cov-2 3CLpro was less than 20 nM. Further, the values for the EC50 in series [1] and in series [3] were 1000 to 10000 nM and less than 100 nM, respectively. The CC50 in series [2] is more than 10000 nM.

The record behind these values is patent publication US20240199647A1, “ANTI-VIRAL COMPOUNDS” (Aligos Therapeutics, Inc., priority 2022, published 2024).
